What was measured:
[1] = tested on: C. glabrata YEM19 (over-expressing the CgCDR1 and CgCDR2 pumps); assay: Checkerboard / broth microdilution assay, potentiation of fluconazole vs. C. glabrata; conditions: for MIC: Nakaseomyces glabratus, 48 h; for MPC8: in combination with fluconazole, strain YEM19
[2] = tested on: Candida albicans YEM15 (over-expressing the CDR1 and CDR2 pumps); assay: Checkerboard / broth microdilution assay, potentiation of fluconazole vs. C. albicans; conditions: for MIC: Candida albicans, 48 h; for MPC8 = concentration of efflux pump inhibitor necessary to reduce the fluconazole MIC 8-fold: in combination with fluconazole, strain YEM15

## COc1ccc(N(C(=O)Nc2ccc(F)cc2)C(C)c2nc3ccccc3c(=O)n2N2CCNCC2)c(OC)c1 (centres unmarked) [Compound 46]
[1]
  MIC: > 32 µg/mL
  MPC8: 32 µg/mL

## CCOC(=O)N1CCN(n2c(C(C)N(C(=O)Nc3ccc(F)cc3)c3ccc(OC)cc3OC)nc3ccccc3c2=O)CC1 (centres unmarked) [Compound 47]
[1]
  MIC: > 32 µg/mL
  MPC8: 0.5 µg/mL
[2]
  MIC: > 32 µg/mL
  MPC8 = concentration of efflux pump inhibitor necessary to reduce the fluconazole MIC 8-fold: 0.25 µg/mL

## COc1ccc(N(C(=O)Nc2ccc(F)cc2)C(C)c2nc3ccccc3c(=O)n2N2CCN(CC(=O)NCCO)CC2)c(OC)c1 (centres unmarked) [Compound 48]
[1]
  MIC: > 32 µg/mL
  MPC8: 2 µg/mL
[2]
  MIC: > 32 µg/mL
  MPC8 = concentration of efflux pump inhibitor necessary to reduce the fluconazole MIC 8-fold: 16 µg/mL

## CCNC(=O)N1CCN(n2c(C(C)N(C(=O)Nc3ccc(F)cc3)c3ccc(OC)cc3OC)nc3ccccc3c2=O)CC1 (centres unmarked) [Compound 49]
[1]
  MIC: > 32 µg/mL
  MPC8: 1 µg/mL
[2]
  MIC: > 32 µg/mL
  MPC8 = concentration of efflux pump inhibitor necessary to reduce the fluconazole MIC 8-fold: 1 µg/mL

## COc1ccc(N(C(=O)Nc2ccc(F)cc2)C(C)c2nc3ccccc3c(=O)n2N2CCN(C(=O)C[n+]3ccccc3)CC2)c(OC)c1.[Cl-] (centres unmarked) [Compound 50]
[1]
  MIC: > 32 µg/mL
  MPC8: 4 µg/mL
[2]
  MIC: > 32 µg/mL
  MPC8 = concentration of efflux pump inhibitor necessary to reduce the fluconazole MIC 8-fold: 32 µg/mL

## CCOC(=O)CCCN1CCN(n2c(C(C)N(C(=O)Nc3ccc(F)cc3)c3ccc(OC)cc3OC)nc3ccccc3c2=O)CC1 (centres unmarked) [Compound 51]
[1]
  MIC: > 32 µg/mL
  MPC8: 0.25 µg/mL
[2]
  MIC: > 32 µg/mL
  MPC8 = concentration of efflux pump inhibitor necessary to reduce the fluconazole MIC 8-fold: 1 µg/mL

## COc1ccc(N(C(=O)Nc2ccc(F)cc2)C(C)c2nc3ccccc3c(=O)n2N2CCN(CCCC(=O)O)CC2)c(OC)c1 (centres unmarked) [Compound 52]
[1]
  MIC: > 32 µg/mL
  MPC8: 32 µg/mL

## COc1ccc(N(C(=O)Nc2ccc(F)cc2)C(C)c2nc3ccccc3c(=O)n2N2CCN(C(=O)[C@@H]3CCCN3C(=O)OC(C)(C)C)CC2)c(OC)c1 (some centres unmarked) [Compound 53]
[1]
  MIC: > 32 µg/mL
  MPC8: 1 µg/mL
[2]
  MIC: > 32 µg/mL
  MPC8 = concentration of efflux pump inhibitor necessary to reduce the fluconazole MIC 8-fold: 4 µg/mL

## COc1ccc(N(C(=O)Nc2ccc(F)cc2)C(C)c2nc3ccccc3c(=O)n2N2CCN(C(=O)[C@@H]3CCCN3)CC2)c(OC)c1 (some centres unmarked) [Compound 54]
[1]
  MIC: > 32 µg/mL
  MPC8: 4 µg/mL

## COc1ccc(N(C(=O)Nc2ccc(F)cc2)C(C)c2nc3ccccc3c(=O)n2N2CCN(C(=O)CNC(=O)OC(C)(C)C)CC2)c(OC)c1 (centres unmarked) [Compound 55]
[1]
  MIC: > 32 µg/mL
  MPC8: 1 µg/mL
[2]
  MIC: > 32 µg/mL
  MPC8 = concentration of efflux pump inhibitor necessary to reduce the fluconazole MIC 8-fold: 4 µg/mL

## COc1ccc(N(C(=O)Nc2ccc(F)cc2)C(C)c2nc3ccccc3c(=O)n2N2CCN(C(=O)OCCn3ccc(=O)cc3)CC2)c(OC)c1 (centres unmarked) [Compound 56]
[1]
  MIC: > 32 µg/mL
  MPC8: 8 µg/mL
[2]
  MIC: > 32 µg/mL
  MPC8 = concentration of efflux pump inhibitor necessary to reduce the fluconazole MIC 8-fold: 16 µg/mL

## COc1ccc(N(C(=O)Nc2ccc(F)cc2)C(C)c2nc3ccccc3c(=O)n2N2CCN(C(=O)N3CCOCC3)CC2)c(OC)c1 (centres unmarked) [Compound 57]
[1]
  MIC: > 32 µg/mL
  MPC8: 1 µg/mL
[2]
  MIC: > 32 µg/mL
  MPC8 = concentration of efflux pump inhibitor necessary to reduce the fluconazole MIC 8-fold: 1 µg/mL

## COc1ccc(N(C(=O)Nc2ccc(Cl)nn2)C(C)c2nc3ccccc3c(=O)n2N2CCN(C)CC2)c(OC)c1 (centres unmarked) [Compound 58]
[1]
  MIC: > 32 µg/mL
  MPC8: 8 µg/mL
[2]
  MIC: > 32 µg/mL
  MPC8 = concentration of efflux pump inhibitor necessary to reduce the fluconazole MIC 8-fold: 16 µg/mL

## COc1ccc(N(C(=O)Nc2ccc(C)cn2)C(C)c2nc3ccccc3c(=O)n2N2CCN(C)CC2)c(OC)c1 (centres unmarked) [Compound 59]
[1]
  MIC: > 32 µg/mL
  MPC8: 16 µg/mL

## COc1cccc(N(C(=O)Nc2ccc(F)cc2)C(C)c2nc3ccccc3c(=O)n2N2CCN(C)CC2)c1 (centres unmarked) [Compound 60]
[2]
  MIC: > 32 µg/mL
  MPC8 = concentration of efflux pump inhibitor necessary to reduce the fluconazole MIC 8-fold: 16 µg/mL

## COc1cc(N(C(=O)Nc2ccc(F)cc2)C(C)c2nc3ccccc3c(=O)n2N2CCN(C)CC2)cc(OC)c1OC (centres unmarked) [Compound 61]
[2]
  MIC: > 32 µg/mL
  MPC8 = concentration of efflux pump inhibitor necessary to reduce the fluconazole MIC 8-fold: 8 µg/mL

## CC(c1nc2ccccc2c(=O)n1N1CCN(C)CC1)N(C(=O)Nc1ccc(F)cc1)c1ccc(F)cc1F (centres unmarked) [Compound 62]
[1]
  MIC: > 32 µg/mL
  MPC8: 32 µg/mL
[2]
  MIC: > 32 µg/mL
  MPC8 = concentration of efflux pump inhibitor necessary to reduce the fluconazole MIC 8-fold: 8 µg/mL

## COc1ccc(N(C(=O)Nc2ccc(F)cc2)C(C)c2nc3cccc(F)c3c(=O)n2N2CCN(C)CC2)cc1OC (centres unmarked) [Compound 63]
[1]
  MIC: > 32 µg/mL
  MPC8: 8 µg/mL
[2]
  MIC: > 32 µg/mL
  MPC8 = concentration of efflux pump inhibitor necessary to reduce the fluconazole MIC 8-fold: 8 µg/mL

## CCOC(=O)N1CCN(n2c(C(C)N(C(=O)Nc3ccc(F)cc3)c3ccc(OC)cc3OC)nc3ccc(Cl)cc3c2=O)CC1 (centres unmarked) [Compound 92]
[2]
  MIC: > 32 µg/mL
  MPC8 = concentration of efflux pump inhibitor necessary to reduce the fluconazole MIC 8-fold: 4 µg/mL

## CCOC(=O)N1CCN(n2c(C(C)N(C(=O)Nc3ccc(F)cc3)c3ccc(OC)cc3OC)nc3c(OC)cccc3c2=O)CC1 (centres unmarked) [Compound 95]
[2]
  MIC: > 32 µg/mL
  MPC8 = concentration of efflux pump inhibitor necessary to reduce the fluconazole MIC 8-fold: 32 µg/mL

## COc1ccc(N(C(=O)Nc2ccc(F)cc2)C(C)c2nc3ccc(F)cc3c(=O)n2N2CCNCC2)c(OC)c1 (centres unmarked) [Compound 127]
[1]
  MIC: > 32 µg/mL
  MPC8: 8 µg/mL

## COc1ccc(N(C(=O)Nc2ccc(F)cc2)C(C)c2nc3ccccc3c(=O)n2N2CCN(C(=O)CN3CCN(C)CC3)CC2)c(OC)c1 (centres unmarked) [Compound 138]
[1]
  MIC: > 32 µg/mL
  MPC8: 1 µg/mL

## COc1ccc(N(C(=O)Nc2ccc(F)cc2)C(C)c2nc3ccccc3c(=O)n2N2CCN(C(=O)CN3CCNCC3)CC2)c(OC)c1 (centres unmarked) [Compound 140]
[1]
  MIC: > 32 µg/mL
  MPC8: 2 µg/mL

## COc1ccc(N(C(=O)Nc2ccc(F)cc2)C(C)c2nc3ccccc3c(=O)n2N2CCN(C(=O)Cn3cncn3)CC2)c(OC)c1 (centres unmarked) [Compound 149]
[1]
  MIC: > 32 µg/mL
  MPC8: 32 µg/mL

## COc1ccc(N(C(=O)Nc2ccc(F)cc2)C(C)c2nc3ccccc3c(=O)n2N2CCN(C(=O)CN3C(=O)CCC3=O)CC2)c(OC)c1 (centres unmarked) [Compound 150]
[1]
  MIC: > 32 µg/mL
  MPC8: 8 µg/mL

## COc1ccc(N(C(=O)Nc2ccc(F)cc2)C(C)c2nc3ccccc3c(=O)n2N2CCN(C(=O)[C@H]3CCCN3)CC2)c(OC)c1 (some centres unmarked) [Compound 159]
[1]
  MIC: > 32 µg/mL
  MPC8: 2 µg/mL

## COc1ccc(N(C(=O)Nc2ccc(F)cc2)C(C)c2nc3ccccc3c(=O)n2N2CCN(C(=O)NCCN3CCOCC3)CC2)c(OC)c1 (centres unmarked) [Compound 169]
[1]
  MIC: > 32 µg/mL
  MPC8: 1 µg/mL

## COc1ccc(N(C(=O)Nc2ccc(F)cc2)C(C)c2nc3ccccc3c(=O)n2N2CCN(C(=O)NCCN(C)C)CC2)c(OC)c1 (centres unmarked) [Compound 170]
[1]
  MIC: > 32 µg/mL
  MPC8: 1 µg/mL

## COc1ccc(N(C(=O)Nc2ccc(F)cc2)C(C)c2nc3ccccc3c(=O)n2N2CCN(C(=O)NCCN3CCCC3)CC2)c(OC)c1 (centres unmarked) [Compound 171]
[1]
  MIC: > 32 µg/mL
  MPC8: 1 µg/mL

## COc1ccc(N(C(=O)Nc2ccc(F)cc2)C(C)c2nc3ccccc3c(=O)n2N2CCN(C(=O)NCCN3CCNCC3)CC2)c(OC)c1 (centres unmarked) [Compound 172]
[1]
  MIC: > 32 µg/mL
  MPC8: 4 µg/mL

## COc1ccc(N(C(=O)Nc2ccc(F)cc2)C(C)c2nc3ccccc3c(=O)n2N2CCN(CCCC(=O)NS(=O)(=O)C(F)(F)F)CC2)c(OC)c1 (centres unmarked) [Compound 182]
[1]
  MIC: > 32 µg/mL
  MPC8: 32 µg/mL

## COc1ccc(N(C(=O)Nc2ccc(F)cc2)[C@@H](C)c2nc3ccccc3c(=O)n2N2CCN(C(=O)[C@@H]3CCCN3)CC2)c(OC)c1 [Compound 183]
[1]
  MIC: > 32 µg/mL
  MPC8: 1 µg/mL

## COc1ccc(N(C(=O)Nc2ccc(F)cc2)[C@H](C)c2nc3ccccc3c(=O)n2N2CCN(C(=O)[C@@H]3CCCN3)CC2)c(OC)c1 [Compound 184]
[1]
  MIC: > 32 µg/mL
  MPC8: 32 µg/mL

## COc1ccc(N(C(=O)Nc2ccc(F)cc2)C(C)c2nc3ccccc3c(=O)n2N2CCN(C(=O)CN)CC2)c(OC)c1 (centres unmarked) [Compound 185]
[1]
  MIC: > 32 µg/mL
  MPC8: 16 µg/mL

## COc1ccc(N(C(=O)Nc2ccc(F)cc2)C(C)c2nc3ccccc3c(=O)n2N2CCN(C(=O)CCN)CC2)c(OC)c1 (centres unmarked) [Compound 186]
[1]
  MIC: > 32 µg/mL
  MPC8: 8 µg/mL

## COc1ccc(N(C(=O)Nc2ccc(F)cc2)C(C)c2nc3ccccc3c(=O)n2N2CCN(C(=O)[C@H](C)N)CC2)c(OC)c1 (some centres unmarked) [Compound 187]
[1]
  MIC: > 32 µg/mL
  MPC8: 4 µg/mL

## COc1ccc(N(C(=O)Nc2ccc(F)cc2)C(C)c2nc3ccccc3c(=O)n2N2CCN(C(=O)[C@@H](N)CO)CC2)c(OC)c1 (some centres unmarked) [Compound 188]
[1]
  MIC: > 32 µg/mL
  MPC8: 8 µg/mL

## CNCC(=O)N1CCN(n2c(C(C)N(C(=O)Nc3ccc(F)cc3)c3ccc(OC)cc3OC)nc3ccccc3c2=O)CC1 (centres unmarked) [Compound 189]
[1]
  MIC: > 32 µg/mL
  MPC8: 4 µg/mL

## COc1ccc(N(C(=O)Nc2ccc(F)cc2)C(C)c2nc3ccccc3c(=O)n2N2CCN(C(=O)C[C@@H]3CCCN3)CC2)c(OC)c1 (some centres unmarked) [Compound 190]
[1]
  MIC: > 32 µg/mL
  MPC8: 0.5 µg/mL

## COc1ccc(N(C(=O)Nc2ccc(F)cc2)C(C)c2nc3ccccc3c(=O)n2N2CCN(C(=O)C3CCNCC3)CC2)c(OC)c1 (centres unmarked) [Compound 197]
[1]
  MIC: > 32 µg/mL
  MPC8: 4 µg/mL

## COc1ccc(N(C(=O)Nc2ccc(F)cc2)C(C)c2nc3ccccc3c(=O)n2N2CCN(C(=O)N3CCNCC3)CC2)c(OC)c1 (centres unmarked) [Compound 200]
[1]
  MIC: > 32 µg/mL
  MPC8: 16 µg/mL

## CC(c1nc2ccccc2c(=O)n1N1CCN(C(=O)[C@@H]2CCCN2)CC1)N(C(=O)Nc1ccc(F)cc1)c1ccc(OCC2CC2)cc1OCC1CC1 (some centres unmarked) [Compound 206]
[1]
  MIC: > 32 µg/mL
  MPC8: 0.25 µg/mL

## CC(c1nc2ccccc2c(=O)n1N1CCN(C(=O)[C@@H]2CCCN2)CC1)N(C(=O)Nc1ccc(F)cc1)c1cccc(-n2nccn2)c1 (some centres unmarked) [Compound 208]
[1]
  MIC: > 32 µg/mL
  MPC8: 32 µg/mL

— patent US20030220338A1, “Fungal efflux pump inhibitors” (priority 2001, published 2003)
